# Source: the supplement of paper PMC9931576
# Human monoclonal antibodies against the spike receptor-binding domain (heavy:light variable regions). IC50 against pseudoviruses bearing the spike of naturally observed variants; lower = stronger; >10 µg/ml means not reached at the top dose. No active / inactive call. The stated detection limit is 0.0005 µg/ml; values near or below 0.001 µg/ml lie at the floor of the assay.
# B1: BD56-580 (protein)
# chain 1: QVQLVESGGGVVQPGRSLRLSCAASGFTFSSYGMHWVRQGPGKGLEWVAVIWNDGSGKHYADSVKGRFSISRDNSKNMVYLQMNSLRSEDTAVYFCARDYGDYTTLFDSWGQGTLVTV
# chain 2: DIQMTQSPSSLSASVGDRVTITCRASQSIRRFLNWYQHKPGKAPKLLIYGASSLQSGVPSRFSGSASGTEFTLTINNLQPEDFATYYCQQSYETPPWTFGQGTKVEI
# B2: BD56-569 (protein)
# chain 1: QVQLVESGGGVVQPGRSLRLSCAASGFSFSSYGMHWVRQAPGKGLEWVAVIGDDGSIKLYADSVKGRFTISRDNSKNTLYLQMNGLRPEDTAVYFCARDYGAVVTLFDYWGQGTLVTVSS
# chain 2: DIQMTQSPSSLSASVGDRVTITCRASQSVSTYLNWYQQKQGKAPKLLIYDASSLQSGVPSRFSGSGSGTDFTLTISSLQPEDFATYYCQQSYSTPPWTFGQGTKVDIK
# B3: BD56-565 (protein)
# chain 1: EVQLVESGGGLVQPGGSLRLSCAASGFAFRSYDMHWVRQDIGKGPEWVAAIGTAGDTYYPDSVKGRFTISRENAKNSLYLQMNSLRAGDTAVYFCVRDLEKNWYFDLWGRGTLVTVSS
# chain 2: DIRMTQSPSSLSASVGDRVTITCRASQSISRFLNWYQQKPGKAPDLLIYGASTLRSGVPSRFSGSGSGTDFTLTISSLQPEDFATYYCQQSYSTPPISFGQGTRLEIK
# B4: BD56-559 (protein)
# chain 1: EVQLVESGGGWVQPGGSLRLSCAASGFTFSNYDMHWVRQTTGKGLDWVSTIGTAGDTYYPDSVKGRFTISRENAKNSLYLQMNSLRAGDTAVYYCARVGYSGSGSQEFRYWYLDLWGRGTLVTVSS
# chain 2: DIEMTQSPSSLSASVGDRVTITCRASQSISTYLNWYQQKPGKAPKILIYAASSLQSGVPSRFSGSGSGTDFTLTISSLQPEDFATYYCQQSYTTPLYTFGQGTRLEIK
# B5: BD56-551 (protein)
# chain 1: QVQLVQSGAEVKKPGSSVKVSCKASGGIFSSNGISWVRQAPGQGLEWMGGIIPIFGTVNYAQEFQGRVTITADESTSTAYMELSSLRSEDTAVYYCAREMETSPLYGMDVWGQGTTVTVSS
# chain 2: DIQMTQSPSSLSASVGDRVTITCRASQSIRTYLNWYQQKPGKAPNLLIYAASTLESGVPSRFSGSGSGTDFTLTISSLQPEDFAIYYCQQSYRTVTFGGGTKVEIK
# B6: BD56-589 (protein)
# chain 1: QKKLVQSGPEVKKPGTSVKVSCKASGFTFSSSAVQWVRQARGQSLEWIGWIVAGGGNTDYAQKFQGRVTISRDMSTSTAYMELSSLRSEDTAVYYCAAPYCSGGNCYDGFDIWGQGTMVTVSS
# chain 2: DIALTQSPGTLSLSPGERATLSCRASQSVRSNYLAWYQHKPGQPPRLLIYAASSRATGIPERFSGSGSGTDFTLTINRLEPEDFAVYHCQQYGSSPWTFGQGTKVEI
# B7: BD56-552 (protein)
# chain 1: QVQLVESGGGVVQPGRSLRLSCAASGFTFSSYGMHWVRQAPGKGLEWVAGIWHDGSNKYHADSVKGRFTISRDNSKDTLYLQMNSLRAEDTAVYYCARDHLIAPVHGMDVWGQGTTVTVSS
# chain 2: DIQMTQSPSSLSAFVGDRVTITCRASQSISRYLNWYQQKPGKAPKLLIYAASSLESGVPSRFSGGGSGTDFTLTINSLQPEDFAMYYCQQRYTTPPTFGQGTKVEIK
# B8: BD56-549 (protein)
# chain 1: QVLLVESGGGVVQPGRSLRLSCAASGFTFSNYGMHWVRQAPGKGLEWVAVMSSDGSYRSHADSVKGRFTISRDNSKNTLYLQMNSLRAEDTAVYYCARDATAGTSMVTLFDYWGQGTLVTVSS
# chain 2: DIQMTQSPSSLSASVGDRVTITCRASQSISNYLSWYQQKPGKAPKLLIYTTSSLQSGVPSRFSGGGSGTEFTLTNSNLQPEDFATYYCQQSYSTPPWTFGQGTKLEIK
# B9: BD56-556 (protein)
# chain 1: QMHLVQSGPEVKKPGTSVRVSCKASTFTFATSAVQWVRQARGQRLEWIGWIVVGSGDTNYAQKFQERVTITRDMSKSAAYLELNSLRSEDTALYYCAAPHCNRTTCYDGFDMWGQGTMVTVSS
# chain 2: EIVLTQSPGILSLSPGERATLSCRASQSVRSSYLGWYQQKAGQAPRLLIYGASSRATGVPDRFGGSGSGTDFTLTISRLEPEDFAVYYCQQYGSSPWTFGQGTKVEIK
# B10: BD56-555 (protein)
# chain 1: QVQLVESGGDVVQPGRSLRLSCAASGFTFSTSVMHWVRQAPGKGLEWVAVISDDGSIKYYVDSVKGRFTISRDNSKNTLFLQMNSLTPEDTAVYYCAKDVEAVVSATDVLEHWGQGTLVTVSS
# chain 2: DIQMTQSPSSLSASVGDRVTITCRASQSIINYLNWYQHKPGKAPKLLIYAASTLQSGVPSRFSGSGSGTDFTLTIRSLQPEDFATYYCQQSYSTPPLTFGGGTKVEIK
# B11: BD56-583 (protein)
# chain 1: EVQLVESGGGLVQPGGSLRLSCAASGFTFSNYDMHWVRQGPERGLEWVSLIGTAGDTYYPDSVKGRFTISRENAKNSLYLQMNDLRAGDTAVYYCARATYDSSGFYGFFDCWGQGTLVTVSS
# chain 2: DIQMTQSPSSLSASVGDRVTITCRASQTIRSYLNWYQQRPGKAPKVLIYAASTLQSGVPSRFSGSGSGTDFTLTISSLQPEDFATYYCQQSYITTSFTFGPGTKVDIK
# B12: BD56-593 (protein)
# chain 1: QMQLVQSGPEVKKPGASVKLSCKASGFTFTTSSIQWVRQARGQRLEWIGWIVVGSDNADYAPKFQERVTLTRDVSTSTASLELSSLRSDDTAVYYCAAPHCNTTSCYDGFDLWGQGTMVSVSS
# chain 2: EIVLTQSPDTLSLSPGQRATLSCRASQTVRSAYFAWYQQKPGQAPRLLMFDTSSRATGIPDRFSGSGSGTDFILTISRLEPEDFAVYYCQQYGRSPWTFGQGTKVEIK
# B13: BD56-560 (protein)
# chain 1: EVQLVESGGGLVQPGRSLRLSCAASGFTFDDYAIHWVRQAPGKGLEWVSGSTWNSGTIDYADSVKGRFIISRDNAKNSLYLQMNRLRAEDTALYYCAKDIALVEGKAVGFDSWGQGTLVTVSS
# chain 2: EIVLTQSPATLSLSPGERATLSCRASQSISSYLAWYQQKPGQAPRLLIYDASNRATGIPARFSGSGSGTDFTLTISSLEPEDFAVYYCQQRGNWPKAFGQGTKVEIK
# Biological target: SARS-CoV-2 Omicron BA.1 spike pseudovirus
# Assay: pseudovirus neutralization IC50; higher = weaker neutralization
# Protocol: (§1)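 Single-round VSV luciferase pseudovirus mixed with antibody dilutions for 1 h and put on Huh-7 cells for about a day; IC50 from the dose curve.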
row,Binder,pseudovirus neutralization IC50 [µg/mL]
1,B1,1.52
2,B2,3.08
3,B3,> 10
4,B4,> 10
5,B5,0.399
6,B6,0.001
7,B7,0.855
8,B8,> 10
9,B9,0.001
10,B10,> 10
11,B11,4.84
12,B12,0.001
13,B13,0.542

# Biological target: SARS-CoV-2 Omicron BA.2 spike pseudovirus
# Assay: as above
# Protocol: as §1
row,Binder,pseudovirus neutralization IC50 [µg/mL]
1,B1,2.7
2,B2,4.75
3,B3,> 10
4,B4,> 10
5,B5,0.444
6,B6,0.00049
7,B7,0.83
8,B8,> 10
9,B9,0.000896
10,B10,> 10
11,B11,5.08
12,B12,0.00073
13,B13,0.741

# Biological target: SARS-CoV-2 Omicron BA.2.75 spike pseudovirus
# Assay: as above
# Protocol: as §1
row,Binder,pseudovirus neutralization IC50 [µg/mL]
1,B1,4.27
2,B2,5.66
3,B3,> 10
4,B4,> 10
5,B5,0.472
6,B6,0.0106
7,B7,1.05
8,B8,> 10
9,B9,0.0053
10,B10,> 10
11,B11,4.79
12,B12,0.00216
13,B13,0.871

# Biological target: SARS-CoV-2 Omicron BA.5 spike pseudovirus
# Assay: as above
# Protocol: as §1
row,Binder,pseudovirus neutralization IC50 [µg/mL]
1,B1,3.1
2,B2,3.98
3,B3,> 10
4,B4,> 10
5,B5,6.88
6,B6,> 10
7,B7,> 10
8,B8,> 10
9,B9,0.16
10,B10,> 10
11,B11,5.11
12,B12,1.52
13,B13,> 10

# Biological target: SARS-CoV-2 Omicron BQ.1.1 spike pseudovirus
# Assay: as above
# Protocol: as §1
row,Binder,pseudovirus neutralization IC50 [µg/mL]
1,B1,3.37
2,B2,5.12
3,B3,> 10
4,B4,> 10
5,B5,> 10
6,B6,> 10
7,B7,> 10
8,B8,> 10
9,B9,3.41
10,B10,> 10
11,B11,6.06
12,B12,> 10
13,B13,> 10

# Biological target: SARS-CoV-2 Omicron XBB spike pseudovirus
# Assay: as above
# Protocol: as §1
row,Binder,pseudovirus neutralization IC50 [µg/mL]
1,B1,3.07
2,B2,2.7
3,B3,> 10
4,B4,> 10
5,B5,7.99
6,B6,> 10
7,B7,5.2
8,B8,> 10
9,B9,> 10
10,B10,> 10
11,B11,4.91
12,B12,> 10
13,B13,> 10

# Biological target: SARS-CoV-2 early D614G spike pseudovirus
# Assay: as above
# Protocol: as §1
row,Binder,pseudovirus neutralization IC50 [µg/mL]
1,B1,> 10
2,B2,1.21
3,B3,> 10
4,B4,> 10
5,B5,0.185
6,B6,0.0365
7,B7,1.39
8,B8,> 10
9,B9,0.00546
10,B10,4.46
11,B11,2.77
12,B12,0.00233
13,B13,0.0313
